A mixed list of measured activities; the numbers were collected in NIAID ChemDB.

Common to all: whole-cell or culture tests; organism: HIV-1; cells: CEM + CEM-SS; read-out: EC50

Blank or dashed fields: not listed here.

smiles,strain,mutations,read by,value
Cc1cn([C@H]2CC[C@@H](CO)O2)c(=O)[nH]c1=O,LAI,-,RT activity,4 µM
Nc1ccn([C@H]2CC[C@@H](CO)O2)c(=O)n1,LAI,-,-,0.0325 µM
CC(C)=CCOc1cc(NC(=S)c2ccoc2C)ccc1Cl,Calanolide A-resistant (RT T139I),RT-T139I,XTT,0.04 µM
CC(C)[C@@H]1[C@H](OC(=O)N[C@@H](Cc2ccccc2)[C@H](O)CN2C[C@H]3CCCC[C@H]3C[C@H]2C(=O)NC(C)(C)C)CCS1(=O)=O,HXB2,-,cytopathic effect / XTT,<0.085 µM
Nc1ncnc2c1ncn2[C@H]1CC[C@@H](CO)O1,LAI,-,RT activity,0.43 µM
CC(C)(C)NC(=O)[C@@H]1C[C@@H]2SCC[C@@H]2CN1C[C@@H](O)[C@H](CSc1ccccc1)NC(=O)O[C@@H]1CCS(=O)(=O)C1,HXB2,-,cytopathic effect / XTT,<0.059 µM
CCCc1cc(=O)oc2c3c(c4c(c12)OC(C)(C)C=C4)O[C@H](C)[C@@H](C)[C@H]3OC,RF,-,XTT,>10 µM
Nc1nc2cc(Cl)c(Cl)cc2n1Cc1ccc(C(F)(F)F)cc1,IIIB,-,plaque count / syncytia,1.8 µM
COC(=O)CCC/C=C(\c1ccc(OC)c(C(=O)OC)c1)c1cc(Cl)c(OC)c(C(=O)OC)c1,-,-,p24,0.08 µM
CC(C)[C@H]1[C@@H](OC(=O)N[C@@H](Cc2ccccc2)[C@H](O)CN2C[C@H]3CCCC[C@H]3C[C@H]2C(=O)NC(C)(C)C)CCS1(=O)=O,HXB2,-,cytopathic effect / XTT,<0.273 µM
O=S1(c2ccccc2)=NC(=S)Nc2ccccc21,McK,-,cytopathic effect / XTT,1.68 µM
CC1(C)CCC[C@]2(C)[C@@H](c3ccoc3)C(=O)[C@@H]3O[C@]312,RF,-,cytopathic effect / XTT,42.1 µM
O=c1[nH]cnc2c1ncn2[C@H]1CC[C@@H](CO)O1,LAI,-,RT activity,4.3 µM
Cc1cn([C@H]2C[C@H](N=[N+]=[N-])[C@@H](CO)O2)c(=O)[nH]c1=O,RF,-,cytopathic effect / XTT,0.004 µM
O=C(CCC(=O)N1CCN(CCNC(=S)Nc2ccc(Br)cn2)CC1)NCC(=O)OC[C@@H]1CC[C@H](n2ccc(=O)[nH]c2=O)O1,LAI,-,RT activity,>100 µM
Cc1cn([C@H]2C[C@H](N=[N+]=[N-])[C@@H](CO)O2)c(=O)[nH]c1=O,-,-,p24,0.005 µM
Cc1cn([C@H]2C[C@H](N=[N+]=[N-])[C@@H](CO)O2)c(=O)[nH]c1=O,NL4-3(RT-4XAZT+Y181C),RT-D67N K70R Y181C T215Y K219Q,XTT,0.04 µM
Cc1cn([C@H]2C[C@H](N=[N+]=[N-])[C@@H](CO)O2)c(=O)[nH]c1=O,IIIB,-,-,0.01 µM
Cc1cn([C@H]2C[C@H](N=[N+]=[N-])[C@@H](CO)O2)c(=O)[nH]c1=O,IIIB,-,cytopathic effect / XTT,0.03 µM
O=c1ccc(-c2cccc(C(F)(F)F)c2)c(O)c(O)c1O,LAI,-,RT activity,3 µM
O=[N+]([O-])c1cccc(Cn2c(Br)nc3cc(Cl)c(Cl)cc32)c1,IIIB,-,plaque count / syncytia,5.3 µM
Cc1ccnc2c1NC(=O)c1cccnc1N2C1CC1,NL4-3(RT-4XAZT+L100I),RT-D67N K70R L100I T215Y K219Q,XTT,0.03 µM
COCCCCCCCCCCCC(=O)OC[C@H]1O[C@@H](n2cc(C)c(=O)[nH]c2=O)C[C@@H]1N=[N+]=[N-],IIIB,-,-,0.0306 µM
Cc1occc1C(=S)Nc1ccc(Cl)c(/C=N/OC(C)(C)C)c1,Thiazolobenzimidazole-resistant (RT V108I),RT-V108I,cytopathic effect / XTT,1.2 µM
C[C@H]1OCC[C@H]1OC(=O)N[C@@H](CSc1ccccc1)[C@H](O)CN1C[C@H]2CCS[C@H]2C[C@H]1C(=O)NC(C)(C)C,HXB2,-,cytopathic effect / XTT,<2.562 µM
Cc1ccnc2c1NC(=O)c1cccnc1N2C1CC1,Diphenyl sulfone-resistant (RT-Y181C),RT-Y181C,cytopathic effect / XTT,5.9 µM
O=C(/C=C/c1ccc(O)c(O)c1)OCCOC(=O)/C=C/c1ccc(O)c(O)c1,RF,-,cytopathic effect / XTT,>9.85 µM
Cc1cn([C@H]2C[C@H](N=[N+]=[N-])[C@@H](CO)O2)c(=O)[nH]c1=O,C-691/H-112,-,plaque count / syncytia,0.002 µM
CCCc1cc(=O)oc2c3c(c4c(c12)OC(C)(C)C=C4)O[C@@H](C)[C@H](C)[C@@H]3O,SK1,-,XTT,0.06 µM
S=C(NCCN1CCNCC1)Nc1ccc(Br)cn1,LAI,-,RT activity,13 µM
CCCCCCCCCCOCCC(=O)OC[C@H]1O[C@@H](n2cc(C)c(=O)[nH]c2=O)C[C@@H]1N=[N+]=[N-],IIIB,-,-,0.0014 µM
CNc1ccc(C)cc1S(=O)(=O)c1ccccc1[N+](=O)[O-],IIIB,-,XTT,0.4 µM
Cc1cn([C@H]2C[C@H](N=[N+]=[N-])[C@@H](CO)O2)c(=O)[nH]c1=O,IIIB,-,cytopathic effect / XTT,0.003 µM
Nc1ncnc2c1ncn2CCOCP(=O)(OCCSSCCO)OCCSSCCO,LAI,-,RT activity,3.1 µM
CNc1ccc(Cl)cc1S(=O)(=O)c1ccccc1[N+](=O)[O-],MN,-,XTT,0.5 µM
Clc1ccc(Cn2c(Br)nc3cc(Cl)c(Cl)cc32)cc1Cl,IIIB,-,plaque count / syncytia,>100 µM
CC(C)(C)NC(=O)[C@@H]1C[C@@H]2SCC[C@@H]2CN1C[C@@H](O)[C@H](CSc1ccccc1)NC(=O)O[C@H]1CCS(=O)(=O)C1,HXB2,-,cytopathic effect / XTT,<0.059 µM
C[C@H](OC(=O)/C=C/c1ccc(O)c(O)c1)[C@H](C)OC(=O)/C=C/c1ccc(O)c(O)c1,RF,-,cytopathic effect / XTT,>3.47 µM
CC(=O)Nc1cccc(-c2ccc(=O)c(O)c(O)c2O)c1,LAI,-,RT activity,10 µM
CC(=O)Oc1ccc(/C=C/C(=O)OCCOC(=O)/C=C/c2ccc(OC(C)=O)c(OC(C)=O)c2)cc1OC(C)=O,RF,-,cytopathic effect / XTT,>6.7 µM
COc1ccc(S(=O)(=O)N(CC2CCCC2)C[C@@H](O)[C@H](Cc2ccccc2)NC(=O)O[C@H]2CCOC2)cc1,IIIB,-,p24,0.007 µM
O=c1ccccc(-c2cncnc2)c1O,LAI,-,RT activity,40 µM
Cc1ccnc2c1NC(=O)c1cccnc1N2C1CC1,4xAZT/L100I(RT-D67N K70R T215Y K219Q L100I),RT-D67N K70R L100I T215Y K219Q,cytopathic effect / XTT,0.03 µM
CCCc1cc(=O)oc2c3c(c4c(c12)OC(C)(C)C=C4)O[C@H](C)[C@@H](C)[C@@H]3O,Thiazolobenzimidazole-resistant (RT V108I),RT-V108I,XTT,24 µM
CN1C(=S)N=S(=O)(O)c2cccc(Cl)c21,IIIB,-,cytopathic effect / XTT,>951 µM
O=C(/C=C/c1ccc(O)c(O)c1)OCCCOC(=O)/C=C/c1ccc(O)c(O)c1,RF,-,cytopathic effect / XTT,>13.7 µM
C[C@@H]1[C@H](OC(=O)N[C@@H](Cc2ccccc2)[C@H](O)CN2C[C@H]3CCCC[C@H]3C[C@H]2C(=O)NC(C)(C)C)CCS1(=O)=O,HXB2,-,cytopathic effect / XTT,<0.171 µM
CCCCCSCCCCCCCC(=O)OC[C@H]1O[C@@H](n2cc(C)c(=O)[nH]c2=O)C[C@@H]1N=[N+]=[N-],IIIB,-,-,0.0055 µM
Cc1cn([C@H]2C[C@H](N=[N+]=[N-])[C@@H](CO)O2)c(=O)[nH]c1=O,LAI,-,RT activity,0.0033 µM
Cc1c(O)cccc1C(=O)N[C@@H](Cc1ccccc1)[C@H](O)C(=O)N1CSC(C)(C)[C@H]1C(=O)NC(C)(C)C,IIIB,-,-,0.02 µM
CCCCCOCCCCCCCC(=O)OC[C@H]1O[C@@H](n2cc(C)c(=O)[nH]c2=O)C[C@@H]1N=[N+]=[N-],IIIB,-,-,0.017 µM
Fc1cccc(F)c1C1SCc2nc3ccccc3n21,IIIB,-,cytopathic effect / XTT,3.4 µM
CC(=O)SCCOP(=O)(OCCSC(C)=O)OC[C@@H]1CC[C@H](n2cnc3c(N)ncnc32)O1,LAI,-,RT activity,0.00056 µM

For reference, 4 entries again:

smiles | strain | mutations | read by | value
C[C@@H]1[C@H](OC(=O)N[C@@H](Cc2ccccc2)[C@H](O)CN2C[C@H]3CCCC[C@H]3C[C@H]2C(=O)NC(C)(C)C)CCS1(=O)=O | HXB2 | - | cytopathic effect / XTT | <0.171 µM
Nc1nc2cc(Cl)c(Cl)cc2n1Cc1ccc(C(F)(F)F)cc1 | IIIB | - | plaque count / syncytia | 1.8 µM
Cc1cn([C@H]2C[C@H](N=[N+]=[N-])[C@@H](CO)O2)c(=O)[nH]c1=O | - | - | p24 | 0.005 µM
CNc1ccc(C)cc1S(=O)(=O)c1ccccc1[N+](=O)[O-] | IIIB | - | XTT | 0.4 µM

Neighbouring rows are from separate reports. ECn is the concentration giving n% inhibition of infection, replication or growth.